Patent publication WO2022250107A1, “Human neutralizing antibody against wild-type strain and mutant strain of sars-cov-2, and antigen-binding fragment thereof” (dated 2022)

Columns and labels:
Test in all cases: cell-based or functional assay
[1] = molecular target: S protein of SARS-CoV-2 alpha strain 2 (Accession ID EPI_ISL_804007; on infectious virus) (SARS-CoV-2, UniProt P0DTC2 14-1273)
[2] = molecular target: S protein of SARS-CoV-2 alpha strain 1 (JPN/QK002/2020, Accession ID EPI_ISL_768526; on infectious virus) (SARS-CoV-2, UniProt P0DTC2 14-1273)
[3] = molecular target: S protein of SARS-CoV-2 delta strain JPN/TKYTK1734/2021 (on infectious virus) (SARS-CoV-2, UniProt P0DTC2 14-1273)

Measured: 中和活性 IC50 (inhibition of infection of VeroE6/TMPRSS2 cells)

B1: EV053272 (antibody, V domains shown)
VH: QVQLVQSGAEVKKPGSSVKVSCKASGGTFSSYAISWVRQAPGQGLKWMGGIIPIFGTAKYAQKFQGRVTITADESTSTAYMELSSLRSEDTAVYYCASGRPVTIGVSSTTGVFDYWGQGTLVTVSS
VL: DIVMTQSPDSLAVSLGERATINCKSRQSVLYSSNNKNYLAWYQQKPGQPPKLLIYWASTRESGVPDRFSGSGSGTDFTLTISSLQAEDVAVYYCQQYYSSPITFGQGTRLEIKR
≤ 10 ng/mL: [1] | [2] | [3]
